Results of unrelated studies side by side (data: NIAID ChemDB).

Shared fields: growth or infection tests; organism: Vaccinia virus; read-out: EC50

An empty or dashed field is not shown. ECn is the concentration giving n% inhibition of infection, replication or growth. Two numbers with a dash give a range or band. Rows are shuffled and stem from different studies.

compound | strain or isolate | cells | result
OC[C@H]1C[C@@H](n2cnc3c(Cl)ncnc32)[C@H](O)[C@@H]1O | Lederle chorioallantoic | VERO | 13 µg/mL
O=c1[nH]c(=O)n([C@@H]2O[C@H](CO)[C@@H](O)[C@@H]2O)cc1/C=C/Br |  | PRK | >200 µg/mL
CC1(C)[C@@H](CO)CC[C@@]1(C)Cn1cnc2c(Cl)ncnc21 |  | E6SM | >400 µg/mL
Nc1nc(N)c2c(ncn2[C@@H]2O[C@H](CO)[C@@H](O)[C@H]2O)n1 | Lederle chorioallantoic | VERO | 2.3 µg/mL
CC1(C)[C@@H](CO)CC[C@@]1(C)Cn1ccc(=O)[nH]c1=O |  | E6SM | >400 µg/mL
CC1COc2c(N3CCN(C)CC3)c(F)cc3c(=O)c(C(=O)O)cn1c23 | Lister | HeLa | 37 µg/mL
OC[C@H]1O[C@@H](c2cc(C(O)CI)c(F)cc2F)C[C@@H]1O |  | E6SM | >16 µg/mL
CC(C)OC1[C@H](n2ccc(=O)[nH]c2=O)O[C@H](COS(=O)(=O)NC(=O)N[C@@H]2O[C@H](COC(=O)c3ccccc3)[C@@H](OC(=O)c3ccccc3)[C@H](OC(=O)c3ccccc3)[C@H]2OC(=O)c2ccccc2)[C@H]1OC(C)C |  | VERO | 50 µg/mL
Nc1ncnc2c1ncn2[C@@H]1C=C(CO)[C@@H](O)[C@H]1O |  | E6SM | 0.7 µg/mL
CC(=O)N[C@H]1[C@@H](OC(=O)NS(=O)(=O)OC[C@H]2O[C@@H](n3ccc(=O)[nH]c3=O)[C@H](OC(C)C)[C@@H]2OC(C)C)O[C@H](COC(C)=O)[C@@H](OC(C)=O)[C@@H]1OC(C)=O |  | VERO | >100 µg/mL
OC[C@H]1O[C@@H](c2cc(C(O)CBr)c(F)cc2F)C[C@@H]1O |  | E6SM | >3.2 µg/mL
Cc1cc(C)nc(NS(=O)(=O)c2ccc(N=C3C(=O)N(CN4CCNCC4)c4ccccc43)cc2)n1 |  | HFF | >60 µM
CCCCCCCCCCCCCCCC(=O)OC[C@H]1O[C@H](OC(=O)NS(=O)(=O)OC[C@H]2O[C@@H](n3ccc(=O)[nH]c3=O)[C@H](OC(C)C)[C@@H]2OC(C)C)[C@H](OC(=O)CCCCCCCCCCCCCCC)[C@@H](OC(=O)CCCCCCCCCCCCCCC)[C@@H]1OC(=O)CCCCCCCCCCCCCCC |  | VERO | >100 µg/mL
Cc1cn([C@@H]2O[C@@H](CO)[C@H](O)[C@H]2O)c(=O)[nH]c1=O |  | VERO B | >1000 µM
CCc1cn([C@H]2C[C@H](O)[C@@H](CO)O2)c(=O)[nH]c1=O |  | PRK | 20 µg/mL
CC(=O)OC[C@H]1O[C@H](OC(=O)NS(=O)(=O)OC[C@H]2O[C@@H](n3ccc(=O)[nH]c3=O)[C@H](OC(C)C)[C@@H]2OC(C)C)[C@@H](OC(C)=O)[C@@H](OC(C)=O)[C@@H]1OC(C)=O |  | VERO | >100 µg/mL
[N-]=[N+]=N[C@H]1[C@H](O)[C@@H](CO)O[C@H]1n1cnc2c(N)ncnc21 |  | PRK | 40–100 µg/mL
O=c1[nH]c(=O)n(C2CC(O[N+](=O)[O-])C(CO)O2)cc1I |  | E6SM | >400 µg/mL
Cc1cc(C)nc(NS(=O)(=O)c2ccc(N=C3C(=O)Nc4ccccc43)cc2)n1 |  | HFF | 55 µM
Nc1ncnc2c1ncn2[C@@H]1O[C@@H](CO)[C@H](O)[C@H]1O |  | VERO B | >1000 µM
O=c1ccn(C2CC(O[N+](=O)[O-])C(CO)O2)c(=O)[nH]1 |  | E6SM | >400 µg/mL
[N-]=[N+]=N[C@@H]1[C@H](O)[C@@H](CO)O[C@H]1n1ccc(N)nc1=O |  | PRK | 40–100 µg/mL
CSc1ncnc2c1ncn2[C@@H]1C[C@H](CO)[C@@H](O)[C@H]1O | Lederle chorioallantoic | VERO | 97 µg/mL
Nc1ncnc2c1ncn2[C@H]1C[C@H](O)[C@@H](CO)O1 |  | PRK | >200 µg/mL
CC1(C)[C@@H](CO)CC[C@@]1(C)Cn1nnc2c(=O)[nH]cnc21 |  | E6SM | >400 µg/mL
O=c1ccn([C@H]2C[C@@H](O)[C@H](CO)O2)c(=O)[nH]1 |  | VERO B | >100 µM
Nc1nc(=O)n(C2CC(O)C(CO)O2)cc1CCCl |  | PRK | 400 µg/mL
[N-]=[N+]=N[C@H]1[C@@H](O)[C@H](n2cnc3c(N)ncnc32)O[C@@H]1CO |  | PRK | 4 µg/mL
O=c1[nH]c(=O)n(C2CC(O)C(CO)O2)cc1CCCCl |  | PRK | 27 µg/mL
Nc1ncnc2c1ncn2[C@@H]1C[C@@H](O)[C@@H](O)[C@H]1O |  | E6SM | 0.1 µg/mL
CC(=O)N1C(=O)C(=Nc2ccc(S(=O)(=O)Nc3nc(C)cc(C)n3)cc2)c2ccccc21 |  | HFF | 40 µM
Nc1ncnc2c1ncn2[C@@H]1O[C@H](CO)[C@@H](O)[C@H]1N |  | PRK | 4 µg/mL
CC(C)O[C@@H]1[C@H](OC(C)C)[C@@H](COS(=O)(=O)NC(=O)O[C@H]2O[C@H](COCc3ccccc3)[C@@H](OCc3ccccc3)[C@H](OCc3ccccc3)[C@H]2OCc2ccccc2)O[C@H]1n1ccc(=O)[nH]c1=O |  | VERO | 1 µg/mL

For reference, 3 entries again:

Nc1ncnc2c1ncn2[C@@H]1O[C@@H](CO)[C@H](O)[C@H]1O ; cells: VERO B ; result: >1000 µM
Cc1cc(C)nc(NS(=O)(=O)c2ccc(N=C3C(=O)Nc4ccccc43)cc2)n1 ; cells: HFF ; result: 55 µM
Nc1ncnc2c1ncn2[C@@H]1O[C@H](CO)[C@@H](O)[C@H]1N ; cells: PRK ; result: 4 µg/mL